## Potato spindle tuber viroid, loop 6: variant abundance in plants

Values reported by Wu et al. 2024 (doi:10.1371/journal.ppat.1012142).

The pool varies loop 6 of the PSTVd intermediate strain in the pattern UNNNCGNNNG; wild type is UGACCGCGAG (upper and lower strand joined, each 5' to 3', the first 5 letters being the upper strand, closing pairs included).

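Three N. benthamiana plants were inoculated with the whole mutant pool. Progeny were sequenced from the inoculated region (day 5), the margin of the inoculated leaf (day 10) and systemic leaves (day 12).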

Numbers give reads per thousand; 0 = not seen among the reads, higher = more abundant. Each site shows the three plants. "Pool" is the share in the plasmid pool used as inoculum, on the same scale. The inoculated region was read from the minus strand, the other sites from the plus strand. IR is the inoculated region, LM the leaf margin, Sys the systemic leaves. Wild type was 20.7 per thousand in the pool and the most common sequence in every sample (inoculated region 195, 198, 203; leaf margin 629, 591, 734; systemic leaves 942, 870, 868).

sequence | pool | IR | LM | Sys
UACUCGGCUG | 0.183 | 0.782 / 0.503 / 0.424 | 0.0828 / 0.0504 / 0.0464 | 0 / 0 / 0
UACUCGGGAG | 0.235 | 0.122 / 0.162 / 0.0369 | 0 / 0 / 0 | 0 / 0 / 0
UACUCGGGCG | 0.157 | 0.122 / 0.144 / 0.0738 | 0.0276 / 0 / 0 | 0 / 0 / 0
UACUCGGGGG | 0.131 | 0.156 / 0.0359 / 0.148 | 0 / 0 / 0.0232 | 0 / 0 / 0
UACUCGGGUG | 0.222 | 0.104 / 0.0539 / 0.129 | 0.0276 / 0 / 0.0232 | 0 / 0 / 0
UACUCGGUAG | 0.222 | 0.122 / 0.0539 / 0.0553 | 0 / 0 / 0.0232 | 0 / 0 / 0
UACUCGGUCG | 0.340 | 0.139 / 0.0719 / 0.111 | 0 / 0 / 0.0232 | 0 / 0 / 0
UACUCGGUGG | 0.327 | 0.0869 / 0.0359 / 0.0738 | 0 / 0 / 0 | 0 / 0 / 0
UACUCGGUUG | 0.275 | 0.104 / 0.0719 / 0.0369 | 0 / 0 / 0 | 0 / 0 / 0
UACUCGUAAG | 0.222 | 0.156 / 0.0180 / 0.0738 | 0 / 0 / 0 | 0 / 0 / 0
UACUCGUACG | 0.170 | 0.122 / 0.0719 / 0.111 | 0 / 0 / 0.0232 | 0 / 0 / 0
UACUCGUAGG | 0.353 | 0.104 / 0.0539 / 0.0553 | 0 / 0 / 0.0232 | 0 / 0 / 0
UACUCGUAUG | 0.275 | 0.0869 / 0.0719 / 0.0738 | 0.138 / 0 / 0.0232 | 0 / 0 / 0
UACUCGUCAG | 0.196 | 0.0521 / 0.108 / 0.0922 | 0 / 0 / 0 | 0 / 0 / 0
UACUCGUCCG | 0.118 | 0.122 / 0.0539 / 0.0553 | 0 / 0 / 0.0232 | 0 / 0 / 0
UACUCGUCGG | 0.183 | 0.139 / 0.0359 / 0.0553 | 0.0276 / 0 / 0 | 0 / 0 / 0
UACUCGUCUG | 0.275 | 0.0348 / 0.0719 / 0.0553 | 0 / 0 / 0 | 0 / 0 / 0
UACUCGUGAG | 0.170 | 0.139 / 0.0539 / 0.0369 | 0 / 0 / 0.0464 | 0 / 0 / 0
UACUCGUGCG | 0.157 | 0.174 / 0.0359 / 0.0922 | 0 / 0 / 0.0232 | 0 / 0 / 0
UACUCGUGGG | 0.144 | 0.139 / 0.0539 / 0.0184 | 0.0276 / 0 / 0 | 0 / 0 / 0
UACUCGUGUG | 0.248 | 0.0695 / 0.0898 / 0.0922 | 0 / 0 / 0 | 0 / 0 / 0
UACUCGUUAG | 0.392 | 0.209 / 0.0898 / 0.0922 | 0 / 0 / 0.0232 | 0 / 0 / 0
UACUCGUUCG | 0.131 | 0.0521 / 0.0359 / 0.0369 | 0.0828 / 0 / 0 | 0 / 0 / 0
UACUCGUUGG | 0.275 | 0.104 / 0.0719 / 0.0738 | 0 / 0 / 0 | 0 / 0 / 0
UACUCGUUUG | 0.353 | 0.0869 / 0.0539 / 0.0184 | 0 / 0 / 0 | 0 / 0 / 0
UACUCGUUUU | 0.0131 | 0 / 0 / 0 | 0 / 0 / 0 | 0 / 0 / 0
UACUCUCGAG | 0.0131 | 0 / 0 / 0 | 0 / 0 / 0.0232 | 0 / 0 / 0
UACUCUGUCC | 0.0131 | 0 / 0 / 0 | 0 / 0 / 0 | 0 / 0 / 0
UAGACGAAAG | 0.144 | 0.139 / 0.0539 / 0.0369 | 0 / 0 / 0 | 0 / 0 / 0
UAGACGAACG | 0.288 | 0.174 / 0.108 / 0.111 | 0.0552 / 0 / 0 | 0 / 0 / 0
UAGACGAAGG | 0.105 | 0.122 / 0.108 / 0.0922 | 0 / 0 / 0 | 0 / 0 / 0
UAGACGAAUG | 0.431 | 0.0521 / 0.108 / 0.148 | 0.0276 / 0 / 0.0232 | 0 / 0 / 0.0205
UAGACGACAG | 0.209 | 0.174 / 0.0898 / 0.0738 | 0.0276 / 0 / 0 | 0 / 0 / 0
UAGACGACCG | 0.170 | 0.156 / 0.0719 / 0.0369 | 0 / 0 / 0.0232 | 0 / 0 / 0
UAGACGACGG | 0.209 | 0.122 / 0.0898 / 0.0738 | 0 / 0 / 0 | 0 / 0 / 0
UAGACGACUG | 0.340 | 0.0695 / 0.0359 / 0.0738 | 0 / 0 / 0.0232 | 0 / 0 / 0
UAGACGAGAG | 0.248 | 0.226 / 0.144 / 0.129 | 0.0276 / 0 / 0 | 0 / 0 / 0
UAGACGAGCG | 0.157 | 0.660 / 0.701 / 0.535 | 0.110 / 0.0252 / 0 | 0 / 0 / 0
UAGACGAGGG | 0.170 | 0.139 / 0.108 / 0.111 | 0.0276 / 0 / 0 | 0 / 0 / 0
UAGACGAGUG | 0.196 | 0.209 / 0.0359 / 0.0738 | 0.0276 / 0 / 0 | 0 / 0 / 0

The authors trace changes outside the varied positions to PCR and sequencing errors or to mutation in the plant; presence does not show that a variant is infectious alone. Samples held 36,220 to 57,551 reads, so the smallest values rest on one or two reads.